Measurements reported in article PMC12002540, “Vibrio cholerae cytolysin induces pro-inflammatory and death signals through novel TLR assembly” (PLOS Pathogens, 2025).

Biological target: the molecule itself
Assay: SDS-PAGE without boiling (SDS-stable oligomer), Coomassie staining

B1: Vibrio cholerae cytolysin (VCC), mature monomeric form (natural protein)
chain: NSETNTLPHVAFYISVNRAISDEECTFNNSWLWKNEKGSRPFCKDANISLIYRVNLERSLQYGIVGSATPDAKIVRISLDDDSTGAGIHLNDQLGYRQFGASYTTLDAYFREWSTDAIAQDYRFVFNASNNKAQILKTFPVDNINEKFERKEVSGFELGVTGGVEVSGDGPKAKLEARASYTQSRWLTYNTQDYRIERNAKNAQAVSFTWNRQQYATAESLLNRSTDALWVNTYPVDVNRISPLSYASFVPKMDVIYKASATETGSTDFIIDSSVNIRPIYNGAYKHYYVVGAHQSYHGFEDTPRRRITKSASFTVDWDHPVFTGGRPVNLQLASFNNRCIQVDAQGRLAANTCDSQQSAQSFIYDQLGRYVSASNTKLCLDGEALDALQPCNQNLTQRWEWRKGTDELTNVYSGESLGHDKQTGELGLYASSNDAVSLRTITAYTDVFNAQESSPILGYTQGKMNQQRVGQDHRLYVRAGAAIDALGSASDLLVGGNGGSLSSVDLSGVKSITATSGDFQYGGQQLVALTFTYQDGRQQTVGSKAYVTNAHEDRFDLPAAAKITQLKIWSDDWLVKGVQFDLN
binding result: binds
